Data published in ChEMBL document CHEMBL3045492, “Regioselective synthesis of novel 3-alkoxy (phenyl) thiophosphorylamido-2-(per-O-acetylglycosyl-1'-imino)thiazolidine-4-one derivatives from O-alkyl N4-glycosyl(thiosemicarbazido)phosphonothioates” (2009).

Columns and labels:
Phomopsis asparagi = experiment: Growth inhibition of Phomopsis asparagi at 50 ppm relative to control
[1] = test system: Botryosphaeria berengeriana; experiment: Growth inhibition of Botryosphaeria berengeriana at 50 ppm relative to control

Structure (SMILES)	growth inhibition (GI) (Phomopsis asparagi) [%]	growth inhibition (GI) [1] [%]
COP(=S)(NN1C(=O)CS/C1=N/[C@@H]1OC[C@@H](OC(C)=O)[C@H](OC(C)=O)[C@H]1OC(C)=O)OC	40	40
COP(=S)(NN1C(=O)CS/C1=N/[C@@H]1OC[C@@H](OC(C)=O)[C@H](OC(C)=O)[C@H]1OC(C)=O)c1ccccc1 (some centres not stated)	40	40
COP(=S)(NN1C(=O)CS/C1=N/[C@@H]1O[C@H](COC(C)=O)[C@@H](OC(C)=O)[C@H](OC(C)=O)[C@H]1OC(C)=O)c1ccccc1 (some centres not stated)	40	40
CCOP(=S)(NN1C(=O)CS/C1=N/[C@@H]1O[C@H](COC(C)=O)[C@@H](O[C@H]2O[C@H](CC(C)=O)[C@@H](OC(C)=O)[C@H](OC(C)=O)[C@H]2OC(C)=O)[C@H](OC(C)=O)[C@H]1OC(C)=O)OCC	40	40
CCCOP(=S)(NN1C(=O)CS/C1=N/[C@@H]1O[C@H](COC(C)=O)[C@@H](OC(C)=O)[C@H](OC(C)=O)[C@H]1OC(C)=O)c1ccccc1 (some centres not stated)	40	40
COP(=S)(NN1C(=O)CS/C1=N\[C@@H]1O[C@H](COC(C)=O)[C@H](OC(C)=O)[C@H](OC(C)=O)[C@H]1OC(C)=O)c1ccccc1 (some centres not stated)	40	40
CCOP(=S)(NN1C(=O)CS/C1=N/[C@@H]1O[C@H](COC(C)=O)[C@@H](O[C@@H]2O[C@H](CC(C)=O)[C@H](OC(C)=O)[C@H](OC(C)=O)[C@H]2OC(C)=O)[C@H](OC(C)=O)[C@H]1OC(C)=O)OCC	40	40
CCOP(=S)(NN1C(=O)CS/C1=N/[C@@H]1O[C@H](COC(C)=O)[C@@H](OC(C)=O)[C@H](OC(C)=O)[C@H]1OC(C)=O)OCC	40	40
CCOP(=S)(NN1C(=O)CS/C1=N/[C@@H]1OC[C@@H](OC(C)=O)[C@H](OC(C)=O)[C@H]1OC(C)=O)OCC	40	40
CCOP(=S)(NN1C(=O)CS/C1=N/[C@@H]1OC[C@@H](OC(C)=O)[C@H](OC(C)=O)[C@H]1OC(C)=O)c1ccccc1 (some centres not stated)	40	40
CCOP(=S)(NN1C(=O)CS/C1=N\[C@@H]1O[C@H](COC(C)=O)[C@H](OC(C)=O)[C@H](OC(C)=O)[C@H]1OC(C)=O)OCC	40	40
